Pooled drug test results. Numbers come from NIAID ChemDB, via PubChem.

Shared fields: toxicity to cultured cells; cells: PBMC; endpoint: CC50

Blank or dashed fields: not listed here. CCn: concentration that lowers growth or viability of the cells by n%. Rows are shuffled and stem from different studies.

compound	read by	value
C[C@]1(/C=C/P(=O)(O)O)CO[C@@H](n2cnc3c(N)ncnc32)C1		>100 µM
Nc1ncnc2c1ncn2CCOCP(=O)(O)O	MTT	>100 µM
CC[C@H](C)[C@H]1NC(=O)[C@@H](NC(=O)[C@@H](C)N(C)C(=O)[C@@H]2CCCN2C(=O)C(C)=O)[C@@H](C)OC(=O)[C@H](Cc2ccc(OC)cc2)N(C)C(=O)[C@@H]2CCCN2C(=O)[C@H](CC(C)C)NC(=O)[C@@H](C)C(=O)[C@H](C(C)C)OC(=O)C[C@@H]1O	MTT	>46.81 µM
C[C@]1(CCP(=O)(O)O)CO[C@@H](n2cnc3c(N)ncnc32)C1		42.4 µM
O=c1nc2oc(-c3ccccc3)cc2cn1COCCO		>100 µM
Cc1cn([C@H]2C[C@H](F)[C@@H](CO)O2)c(=S)[nH]c1=O		>200 µM
O=c1[nH]c(=O)n([C@H]2C[C@H](O)[C@@H](CO)O2)cc1C12B3B4B5B6B(B3B1B42)B1B5C61		>100 µM
O=c1[nH]c(=O)n(COCCO)cc1C#Cc1ccccc1		>100 µM
C[C@H](Cn1cnc2c(N)ncnc21)OCP(=O)(O)O	visual reading	>25 µM
COC(=O)c1ccc([C@H]2OOC3(CCC[C@@H](C)C3)[C@@H](OC)O2)cc1		>100 µM
C[C@H](Cn1cnc2c(N)ncnc21)OCP(=O)(O)O		1200 µM
Cc1cn([C@H]2C[C@H](F)[C@@H](COP(=O)(O)O)O2)c(=S)[nH]c1=O		>200 µM
CCCCCCCCC#Cc1cn(CC=C(CO)CO)c(=O)[nH]c1=O		21.9 µM
C[C@@H]1CC[C@H]2[C@@H](C)CO[C@@H]3OC4(C)CC[C@@H]1[C@]32OO4		>100 µM
COC(=O)[C@H](C)NP(=O)(OC[C@H]1O[C@@H](n2cc(C)c(=O)[nH]c2=O)C[C@@H]1N=[N+]=[N-])Oc1ccccc1		>100 µM
Nc1ncnc2c1ncn2C1CC(/C=C/P(=O)(O)O)(C(F)(F)F)CO1	MTT	>100 µM
CC[C@H](C)[C@H]1NC(=O)[C@@H](NC(=O)[C@@H](C)N(C)C(=O)OCc2ccccc2)[C@@H](C)OC(=O)[C@H](Cc2ccc(OC)cc2)N(C)C(=O)[C@@H]2CCCN2C(=O)[C@H](CC(C)C)NC(=O)[C@@H](C)C(=O)[C@H](C(C)C)OC(=O)C[C@@H]1O	MTT	>48.3 µM
Nc1ccn([C@H]2CC[C@@H](CO)O2)c(=O)n1		35.5 µM
CCCCCc1ccc(C#Cc2cn(COCCO)c(=O)[nH]c2=O)cc1		8.3 µM
C=C[C@H](OC(C)=O)c1ccc(OC(C)=O)cc1	MTS	>4 µM
C/C=C(/C)C(=O)O[C@H]1C(C)=C[C@]23C(=O)[C@@H](C=C(CO)[C@@H](O)[C@]12O)[C@H]1[C@@H](C[C@H]3C)C1(C)C	trypan blue	>0.025 µM
Nc1nc2c(ncn2[C@H]2CO[C@@H](CO)O2)c(=O)[nH]1		>500 µM
CCc1cn([C@H]2C[C@H](N=[N+]=[N-])[C@@H](CO)O2)c(=O)[nH]c1=O		~1600 µM
Nc1ccn([C@@H]2C=C(F)[C@H](CO)O2)c(=O)n1		86.9 µM
CCCCCCCC/C=C\CCCCCCCC(=O)NCCCOc1c(Br)cc(CCNC(=O)CCCCCCCCCCCCC(C)C)cc1Br		>100 µM
COc1ccc(OC)c(CCNC(=S)Nc2ccc(Br)cn2)c1		>100 µM
Cc1cn([C@H]2C[C@H](N=[N+]=[N-])[C@@H](CO)O2)c(=O)[nH]c1=O	XTT	>4 µM
CCCCCCCCc1cc2cn(C/C=C/C(O)CO)c(=O)nc2o1		9.8 µM
CC[C@H](C)[C@H]1NC(=O)[C@@H](NC(=O)[C@@H](CC(C)C)N(C)C(=O)c2cc3ccccc3s2)[C@@H](C)OC(=O)[C@H](Cc2ccc(OC)cc2)N(C)C(=O)[C@@H]2CCCN2C(=O)[C@H](CC(C)C)NC(=O)[C@H](C(C)C)OC(=O)C[C@@H]1O	MTT	5.94 µM
CCCCCCCCc1cc2cn(COCCO)c(=O)nc2o1		52.9 µM
Cc1cn([C@H]2C[C@H](N=[N+]=[N-])[C@@H](COC(=O)C(=O)NC(Cc3ccccc3)C(=O)O)O2)c(=O)[nH]c1=O	trypan blue	100 µM
Nc1nc(N)c2ncn([C@H]3CO[C@@H](CO)O3)c2n1		>500 µM
CCO/N=C(\c1ccc(Br)cc1)C1CCN(C2(C)CCN(C(=O)c3c(C)cc[n+]([O-])c3C)CC2)CC1	MTT	>100 µM
CC(C)CCCC(C)(C)c1ccc(O)cc1O	XTT	44.6 µM
CC1(C)CC[C@]2(C(=O)O)CC[C@]3(C)C(=CC[C@@H]4[C@@]5(C)CC[C@H](O)C(C)(C)[C@@H]5CC[C@]43C)[C@@H]2C1	crystal violet	>160 µM
CC#CCN1C(=O)[C@H]([C@@H](O)C2CCCCC2)NC(=O)C12CCN(Cc1c(C)nn(-c3ccccc3)c1C)CC2	MTT	60 µM
COc1ccc(C(C)(C)CCCC(C)C)c(OC)c1	XTT	>200 µM
Cc1cn([C@H]2C[C@H](N=[N+]=[N-])[C@@H](CO)O2)c(=O)[nH]c1=O		>100 µM
CCCCN1C(=O)[C@@H]([C@H](O)C2CCCCC2)NC(=O)C12CCN(Cc1ccc(Oc3ccc(C(=O)O)cc3)cc1)CC2	MTT	50 µM
Nc1ncnc2c1ncn2C1CC(CCP(=O)(O)O)(C(F)(F)F)CO1	MTT	>100 µM
CC[C@H](C)[C@H](NC(=O)C(=O)OC[C@H]1O[C@@H](n2cc(C)c(=O)[nH]c2=O)C[C@@H]1N=[N+]=[N-])C(=O)O	trypan blue	200 µM
CCO[C@H]1O[C@@H]2OC3(C)CC[C@H]4[C@H](C)CC[C@@H]([C@H]1C)[C@@]24OO3		30.9 µM
Nc1nc2c(ncn2[C@H]2C=C[C@@H](CO)O2)c(=O)[nH]1	MTT	54.2 µM
Cc1cn([C@H]2C[C@H](N=[N+]=[N-])[C@@H](COC(=O)C(=O)N[C@H](C(=O)O)C(C)C)O2)c(=O)[nH]c1=O	trypan blue	100 µM

For reference, 3 entries again:

compound | read by | value
Nc1ncnc2c1ncn2CCOCP(=O)(O)O | MTT | >100 µM
CC[C@H](C)[C@H](NC(=O)C(=O)OC[C@H]1O[C@@H](n2cc(C)c(=O)[nH]c2=O)C[C@@H]1N=[N+]=[N-])C(=O)O | trypan blue | 200 µM
Nc1ncnc2c1ncn2C1CC(CCP(=O)(O)O)(C(F)(F)F)CO1 | MTT | >100 µM